Assay results reported in article PMC4351682, “Formononetin inhibits enterovirus 71 replication by regulating COX- 2/PGE2 expression” (Virology Journal, 2015).

System: EV71 SHZH98 strain
Experiment: CPE inhibition assay for anti-EV71 in Vero cells
Format: cell-based, enterovirus 71
Conditions: TC50/IC50, EV71 SHZH98, Vero cells
Protocol: The anti-EV71 activity of formononetin was assayed by CPE inhibition method. Briefly, cells (3 × 10^4 cells/well) were plated into 96-well culture plates for incubation of 24 h. The medium was then removed and cells were infected with EV71 of 80 pfu/well. Then, various concentrations of formononetin were supplemented for incubation of another 48 h. […] The selectivity index (SI) was calculated as the ratio of TC50/IC50 [19].

Structure (SMILES)	SI	SI (listed as formononetin)
COc1ccc(-c2coc3cc(O)ccc3c2=O)cc1 [Formononetin]	43.30	38.11
CCOC(=O)c1ccc(OCCC2CCN(c3ccc(C)nn3)CC2)cc1 [Pirodavir, reference compound]	58.76	–
